A mixed list of measured activities; the numbers were collected in NIAID ChemDB.

Common to all: growth or infection tests; agent: Mycobacterium tuberculosis

ECn: concentration that inhibits the pathogen or its effect by n%. A number after MIC or MFC names an inhibition level or a share of isolates. Two numbers with a dash give a range or band. "inactive" is the filed call at that dose; no cut-off is given. Percent inhibition refers to the dose given; in toxicity tests it is the harm to the cells. Blank or dashed fields: not listed here. Lines come from different laboratories, so protocols vary.

structure,strain or isolate,read-out,dose,method,conditions,value
COC(=O)C1=C(C)NC(Nc2cccc(Br)c2)=NC1c1ccc(Cl)cc1,H37Rv,MIC,-,agar,-,4 µg/mL
C[C@@H](O)[C@H]1C(=O)N2C(C(=O)O)=C([C@H]3CCCO3)S[C@H]12,-,MIC90,-,broth dilution / visual reading,-,2.5–5 µg/mL
CNC(=S)N(Cc1cc2ccccc2nc1Cl)c1ccc(F)c(Cl)c1,H37Ra,MIC,-,-,-,50 µg/mL
CC(=O)O[C@H]1C[C@@]2(C)[C@@H](C[C@@H](O)[C@H]3[C@@]4(C)CC[C@@H](O)[C@@H](C)[C@@H]4CC[C@@]32C)/C1=C(\CCC=C(C)C)C(=O)O,19 strains (drug-resistant),MIC50,-,-,-,≤16 µg/mL
O=C(O)c1cn(C2CC2)c2cc(N3CCN(/N=C/c4ccc(Br)cc4)CC3)c(F)cc2c1=O,H37Rv,MIC90,-,fluorescence,-,2.8 µM
CO[C@H]1/C=C/O[C@@]2(C)Oc3c(C)c(O)c4c(O)c(c(/C=N/N5C(C)CN(Cc6ccccc6)CC5C)c(O)c4c3C2=O)NC(=O)/C(C)=C\C=C\[C@H](C)[C@H](O)[C@@H](C)[C@@H](O)[C@@H](C)[C@H](OC(C)=O)[C@@H]1C,H37Rv,EC50,-,agar,-,4 µg/mL
C[C@@H]1CC[C@H]2C(C(=O)O)=CCC[C@@H]2[C@@]1(C)CCc1ccoc1,-,MIC,-,-,-,>100 µg/mL
COC(=O)C1=C(C)NC(Nc2cc(O)cc(Cl)c2)=NC1c1ccc(Cl)cc1,H37Rv,MIC,-,agar,-,32 µg/mL
N[C@H]1CCN(c2nc3c(cc2F)c(=O)c(C(=O)O)cn3C2CC2)C1,H37Rv,MIC,-,-,-,0.01 µg/mL
COc1cc2c(cc1-c1cc(=O)c3ccc4occc4c3o1)OCO2,H37Ra,MIC,-,-,-,>100 µg/mL
O=C(O)c1c(=O)c2cc([N+](=O)[O-])c(N3CCSCC3)nc2n2c1sc1ccccc12,H37Rv (MTB),MIC100,-,-,-,1.76 µM
O=c1c2ccc(O)c(O)c2oc2cc(O)cc(O)c12,-,MIC,-,-,-,10 µg/mL
CNC(=S)N(Cc1cc2ccccc2nc1Cl)c1ccc(Cl)cc1,H37Ra,MIC,-,-,-,100 µg/mL
Cc1c(OCC(F)(F)F)ccnc1CS(=O)c1nc2ccc(O)cc2[nH]1.[K+],Erdman,EC50,-,broth dilution / resazurin,-,>50 µM
CC1=CC(O)CC(C)(C)C1/C=C/C(C)=C/C=C/C(C)=C/C=C/C=C(C)/C=C/C=C(C)/C=C/C1=C(C)CC(O)CC1(C)C,H37Rv,inhibition,12.5 µg/mL,BACTEC,-,4%
CN1N=C(c2ccncc2)OC1c1ccc(Cl)c(Cl)c1,H37Rv,MIC,-,-,-,10 µg/mL
CCCCc1nc(Cl)c(/C=N/NC(N)=S)n1CCCN1CCN(c2ccccc2)CC1,H37Rv,MIC,-,agar,-,25 µg/mL
COc1ccc(C2OC(c3ccncc3)=NN2C)cc1OC,H37Rv,MIC,-,-,-,>20 µg/mL
C[C@H](O)[C@H]1C(=O)N2C(C(=O)O)=C(S[C@@H]3CN[C@H](C(=O)N(C)C)C3)[C@H](C)[C@H]12,-,MIC90,-,broth dilution / visual reading,-,4–8 µg/mL
CN1N=C(c2ccncc2)OC1c1ccc(F)cc1,H37Rv,MIC,-,-,-,>20 µg/mL
COc1ccc(/C=N/N2CCN(c3cc4c(cc3F)c(=O)c(C(=O)O)cn4C3CC3)CC2)cc1,H37Rv,MIC90,-,fluorescence,-,6.74 µM
CC1COc2c(N3CCN(C)CC3)c(F)cc3c(=O)c(C(=O)O)cn1c23,Clinical isolates,MIC,-,-,clinical isolate,0.5 µg/mL
COc1c(-c2ccccc2)oc2c(ccc3occc32)c1=O,H37Ra,MIC,-,-,-,>100 µg/mL
O=C(O)c1c(=O)c2cc([N+](=O)[O-])c(N3CCC(n4c(=O)[nH]c5cc(Cl)ccc54)CC3)nc2n2c1sc1ccccc12,H37Rv (MTB),MIC100,-,-,-,0.66 µM
CC(=O)OCC1CC(c2ccc(Cl)cc2)N(c2ccccc2)O1,H37Rv,inhibition,6.25 µg/mL,-,-,inactive
CCCCc1nc(Cl)c(/C=N/NC(N)=S)n1CCCN1CCN(c2ccc(C(F)(F)F)cc2)CC1,H37Rv,MIC,-,agar,-,12.5 µg/mL
CO[C@@H]1C[C@@H](C[C@H]2CC[C@H](C)[C@H]([C@@H](C)C(=O)O)O2)O[C@]2(O[C@](C)([C@H]3CC[C@@](C)([C@@H]4O[C@@H]([C@H]5O[C@@](O)(CO)[C@H](C)C[C@@H]5C)C[C@@H]4C)O3)C[C@H]2C)[C@@H]1C,ETA-R,MIC,-,-,-,6.3 µg/mL
CCCCc1nc(Cl)c(/C=N/NC(N)=S)n1CCCN1CCN(C(c2ccccc2)c2ccc(Cl)cc2)CC1,H37Rv,MIC,-,agar,-,50 µg/mL
CN1CCN(c2nc3c(cc2[N+](=O)[O-])c(=O)c(C(=O)O)c2sc4ccccc4n23)CC1c1ccccc1,H37Rv (MTB),MIC100,-,-,-,12.12 µM
Cc1c(OCC(F)(F)F)ccnc1CS(=O)(=O)c1nc2ccccc2[nH]1,Erdman,EC50,-,broth dilution / resazurin,-,>50 µM
CC(=O)OCC1CC(c2cccc(Br)c2)N(c2ccccc2)O1,H37Rv,inhibition,6.25 µg/mL,-,-,inactive
O=c1c2cccc(O)c2oc2cc(O)cc(O)c12,-,MIC,-,-,-,200 µg/mL
CN1N=C(c2ccncc2)OC1c1cccc(C(F)(F)F)c1,6 PI,MIC,-,-,-,>20 µg/mL
COc1ccc(NCc2cc3ccccc3nc2Cl)cc1,H37Ra,MIC,-,-,-,>400 µg/mL
O=c1c2c(O)cccc2oc2cc(O)cc(O)c12,-,MIC,-,-,-,10 µg/mL
CC(C)(C)NC(=O)C1c2ccccc2CCN1c1nc2c(cc1[N+](=O)[O-])c(=O)c(C(=O)O)c1sc3ccccc3n12,H37Rv (MTB),MIC100,-,-,-,1.36 µM
O=C(O)c1cn(C2CC2)c2cc(N3CCN(/N=C/c4ccccc4F)CC3)c(F)cc2c1=O,H37Rv,MIC90,-,fluorescence,-,1.02 µM
COc1ccc(CC2c3ccccc3CCN2c2nc3c(cc2[N+](=O)[O-])c(=O)c(C(=O)O)c2sc4ccccc4n23)cc1,H37Rv (MTB),MIC100,-,-,-,5.24 µM
CC[C@@H](CO)NCCN[C@@H](CC)CO,H37Rv,MIC,-,agar,-,3.13 µg/mL
C[C@@H](O)[C@H]1C(=O)N2C(C(=O)O)=C(S[C@@H]3CN[C@H](CNS(N)(=O)=O)C3)[C@H](C)[C@H]12,-,MIC90,-,broth dilution / visual reading,-,2.5–5 µg/mL
CC[C@@H](CO)NCCN[C@@H](CC)CO,H37Rv,MIC90,-,visual reading / absorbance,-,7.7 µM
Nc1ccc(-n2cc(C(=O)O)c(=O)c3cc(F)c(N4CCNCC4)cc32)c(F)c1,H37Rv,inhibition,6.25 µg/mL,BACTEC,-,100%
O=C(O)c1c(=O)c2cc([N+](=O)[O-])c(N3CCN(C(=O)c4ccco4)CC3)nc2n2c1sc1ccccc12,H37Rv (MTB),MIC100,-,-,-,6.03 µM
CC[C@H](C)/C=C(C)/C=C/C(=O)CC1=C(C=O)C(O)C(C)C(O)C1,-,EC50,-,visual reading,-,50 µg/mL
CC1=CCC[C@@H]2[C@@](C)(CC/C(C)=C/CO)[C@H](C)CC[C@@]12C,-,MIC,-,-,-,>100 µg/mL
CC(=O)OC1CC(c2ccccc2)N(c2ccccc2)O1,H37Rv,inhibition,6.25 µg/mL,-,-,59%
C=C[C@@](C)(CC[C@H]1C(=C)CC[C@H]2C(C)(C)[C@@H](OC(C)=O)CC[C@]12C)OC(C)=O,-,MIC,-,-,-,>100 µg/mL
Cc1cc(S(=O)(=O)O)c(NC(=O)C(=O)Cc2cc(=O)oc3cc(O)ccc23)cc1Cl,H37Rv,inhibition,12.5 µg/mL,BACTEC,-,16%
COc1cc(O)cc2oc3c(O)cccc3c(=O)c12,-,MIC,-,-,-,>200 µg/mL
CC(=O)OC1CC(c2ccc(Cl)cc2)N(c2ccccc2)O1,H37Rv,inhibition,6.25 µg/mL,-,-,83%
C[C@]1(/C=C/Cl)C[C@](Cl)(CBr)[C@@H](Br)C[C@H]1Cl,-,MIC,-,-,-,32 µg/mL
COc1c(-c2ccc3c(c2)OCO3)oc2c3c(ccc2c1=O)OC(C)(C)C=C3,H37Ra,MIC,-,-,-,100 µg/mL
Cc1cc(=O)oc2cc(N)ccc12,591,MIC,-,resazurin,-,1000 µg/mL
COC(=O)C1=C(C)NC(Nc2ccc(F)c(Br)c2)=NC1c1ccc(Cl)cc1,XDR-TB,MIC,-,agar,-,>64 µg/mL
NC(=S)N(Cc1cc2ccccc2nc1Cl)c1ccc(Cl)c(Cl)c1,H37Ra,MIC,-,-,-,50 µg/mL
COc1c(O)cc2oc3cc(O)cc(O)c3c(=O)c2c1OC,-,MIC,-,-,-,10 µg/mL
CC(C)N(C)N1CCN(c2cc3c(cc2F)c(=O)c(C(=O)O)cn3C2CC2)CC1,H37Rv,MIC90,-,fluorescence,-,0.6 µM
CC1CN(c2nc3c(cc2[N+](=O)[O-])c(=O)c(C(=O)O)c2sc4ccccc4n23)CC(C)O1,H37Rv (MTB),MIC100,-,-,-,1.72 µM
COc1ccc(C2CC(OC(C)=O)ON2c2ccccc2)cc1,H37Rv,inhibition,6.25 µg/mL,-,-,10%
COc1cc(O)c2c(=O)c3c(O)ccc(O)c3oc2c1,-,MIC,-,-,-,200 µg/mL
NNC(=O)c1ccncc1,H37Rv,MIC90,-,visual reading / absorbance,-,0.07 µM
NC(N)=Nc1ccc(-c2ccc(-c3ccc(N=C(N)N)cc3)s2)cc1,H37Rv,MIC,-,-,-,<1 µg/mL
O=C(O)c1cn(-c2ccc([N+](=O)[O-])cc2F)c2cc(N3CCCCC3)c(F)cc2c1=O,H37Rv,inhibition,6.25 µg/mL,BACTEC,-,97%
NNC(=O)c1ccncc1,H37Rv,MIC,-,resazurin,-,0.21 µM
CNC(=S)N(Cc1cc2ccccc2nc1Cl)c1ccc(Cl)c(Cl)c1,H37Ra,MIC,-,-,-,50 µg/mL
O=C(O)c1c(=O)c2cc([N+](=O)[O-])c(N3CCC(O)(c4ccc(Cl)cc4)CC3)nc2n2c1sc1ccccc12,H37Rv (MTB),MIC100,-,-,-,2.83 µM
COC(=O)C1=C(C)NC(Nc2ccc([N+](=O)[O-])cc2O)=NC1c1ccc(Cl)cc1,H37Rv,MIC,-,agar,-,8 µg/mL
CNC(=S)N(Cc1cc2ccccc2nc1Cl)c1ccccc1,H37Ra,MIC,-,-,-,100 µg/mL
Cc1cnc(CSc2nc3ccccc3[nH]2)c(C)c1,Erdman,EC50,-,broth dilution / resazurin,-,>50 µM
O=[N+]([O-])c1cccc(-c2nnc(/N=C\c3ccco3)s2)c1,H37Rv,MIC,-,resazurin,-,3.125 µg/mL
CCOC(=O)NC(=O)c1ccsc1NC(=O)c1nc2ccccc2s1,-,MIC99,-,turbidity,biofilm,0.01 µg/mL
O=C(O)c1cn(C2CC2)c2cc(N3CCN(Cc4ccc5cccc(O)c5n4)CC3)c(F)cc2c1=O,H37Rv,inhibition,6.25 µg/mL,BACTEC,-,98%

A second listing of 8 rows from above:

structure	strain or isolate	read-out	dose	method	conditions	value
CC(C)N(C)N1CCN(c2cc3c(cc2F)c(=O)c(C(=O)O)cn3C2CC2)CC1	H37Rv	MIC90	-	fluorescence	-	0.6 µM
CC1=CCC[C@@H]2[C@@](C)(CC/C(C)=C/CO)[C@H](C)CC[C@@]12C	-	MIC	-	-	-	>100 µg/mL
O=[N+]([O-])c1cccc(-c2nnc(/N=C\c3ccco3)s2)c1	H37Rv	MIC	-	resazurin	-	3.125 µg/mL
CC(=O)OCC1CC(c2cccc(Br)c2)N(c2ccccc2)O1	H37Rv	inhibition	6.25 µg/mL	-	-	inactive
COc1ccc(C2OC(c3ccncc3)=NN2C)cc1OC	H37Rv	MIC	-	-	-	>20 µg/mL
O=C(O)c1cn(C2CC2)c2cc(N3CCN(Cc4ccc5cccc(O)c5n4)CC3)c(F)cc2c1=O	H37Rv	inhibition	6.25 µg/mL	BACTEC	-	98%
NNC(=O)c1ccncc1	H37Rv	MIC	-	resazurin	-	0.21 µM
Nc1ccc(-n2cc(C(=O)O)c(=O)c3cc(F)c(N4CCNCC4)cc32)c(F)c1	H37Rv	inhibition	6.25 µg/mL	BACTEC	-	100%